Source: PMC5557545, “Biochemical characterization of recombinant influenza A polymerase heterotrimer complex: Endonuclease activity and evaluation of inhibitors” (PLoS ONE, 2017)

Target: influenza A polymerase acidic protein (PA), full length, N-terminal 3x FLAG tag, P03433
Settings: AUC

B1: influenza A polymerase basic protein 1 (PB1), full length, untagged (protein)
chain: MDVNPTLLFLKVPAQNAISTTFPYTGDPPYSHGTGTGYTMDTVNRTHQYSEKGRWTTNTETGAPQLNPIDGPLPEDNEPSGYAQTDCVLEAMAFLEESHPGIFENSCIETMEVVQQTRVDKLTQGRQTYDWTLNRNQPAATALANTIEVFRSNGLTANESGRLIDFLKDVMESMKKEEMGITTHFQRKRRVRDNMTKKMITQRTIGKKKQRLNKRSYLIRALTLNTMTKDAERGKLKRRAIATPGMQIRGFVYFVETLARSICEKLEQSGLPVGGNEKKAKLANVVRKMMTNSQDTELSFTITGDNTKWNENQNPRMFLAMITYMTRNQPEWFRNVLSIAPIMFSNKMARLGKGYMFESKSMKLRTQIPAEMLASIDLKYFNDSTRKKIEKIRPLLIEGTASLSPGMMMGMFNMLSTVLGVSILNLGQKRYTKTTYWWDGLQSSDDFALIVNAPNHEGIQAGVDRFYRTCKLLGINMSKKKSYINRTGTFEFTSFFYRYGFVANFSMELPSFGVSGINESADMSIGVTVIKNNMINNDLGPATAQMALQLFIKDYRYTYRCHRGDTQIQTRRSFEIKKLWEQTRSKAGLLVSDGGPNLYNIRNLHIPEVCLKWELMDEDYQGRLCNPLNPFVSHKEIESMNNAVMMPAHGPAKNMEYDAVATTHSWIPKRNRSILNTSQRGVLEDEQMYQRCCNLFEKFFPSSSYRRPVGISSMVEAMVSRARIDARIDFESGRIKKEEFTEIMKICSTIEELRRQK
percent heterodimer: the PA/PB1 exists primarily as a heterodimer of 174 kD (81%
